Results reported in ChEMBL document CHEMBL1687735, “Resistance to colistin in Acinetobacter baumannii associated with mutations in the PmrAB two-component system” (Antimicrob Agents Chemother, 2009).
The source made the active and inactive calls. No cut-off for these calls is given here.

Experiments:
Type in all cases: functional, organism-based
Acinetobacter baumannii [1] = assay: Antibacterial activity against Acinetobacter baumannii MAC203 harboring PmrB T13N, PmrB P233S, PmrB (411-444) deletion mutant assessed as bacterial survival after 1 hr in presence of ferric chloride
Acinetobacter baumannii [2] = assay: Antibacterial activity against Acinetobacter baumannii MAC203 harboring PmrB T13N, PmrB P233S, PmrB (411-444) deletion mutant assessed as bacterial survival at pH 7.7 after 1 hr
Acinetobacter baumannii [3] = assay: Antibacterial activity against Acinetobacter baumannii MAC203 harboring PmrB T13N, PmrB P233S, PmrB (411-444) deletion mutant assessed as bacterial survival after 1 hr in absence of ferric chloride
Acinetobacter baumannii [4] = assay: Antibacterial activity against Acinetobacter baumannii MAC203 harboring PmrB T13N, PmrB P233S, PmrB (411-444) deletion mutant assessed as bacterial survival at pH 5.5 after 1 hr
Acinetobacter baumannii [5] = assay: Increase of pmrA gene expression in Acinetobacter baumannii MAC102 harboring PmrB A227V mutant by RT-PCR analysis relative to 16S rRNA expression
Acinetobacter baumannii [6] = assay: Increase of pmrA gene expression in Acinetobacter baumannii MAC201 harboring PmrB T13N, PmrB P233S mutant by RT-PCR analysis relative to 16S rRNA expression
Acinetobacter baumannii [7] = assay: Increase of pmrA gene expression in Acinetobacter baumannii MAC101 harboring PmrA P102H, PmrB A262P mutant by RT-PCR analysis relative to 16S rRNA expression
Acinetobacter baumannii [8] = assay: Increase of pmrA gene expression in Acinetobacter baumannii MAC203 harboring PmrB T13N, PmrB P233S, PmrB (411-444) deletion mutant by RT-PCR analysis relative to 16S rRNA expression

## COLISTIN SULFATE
Acinetobacter baumannii [1]
  Survival: 15%
Acinetobacter baumannii [2]
  Survival: < 1%
Acinetobacter baumannii [3]
  Survival: 0.1%
Acinetobacter baumannii [4]
  Survival: 68%
Acinetobacter baumannii [5]
  fold change (FC): 5
Acinetobacter baumannii [6]
  fold change (FC): 5
Acinetobacter baumannii [7]
  fold change (FC): 5
Acinetobacter baumannii [8]
  Activity: inactive
